Chains of the proteins cited; added tags and fusions are not shown. Residues count along the entry.
UniProt Q9X9I8, 1-434: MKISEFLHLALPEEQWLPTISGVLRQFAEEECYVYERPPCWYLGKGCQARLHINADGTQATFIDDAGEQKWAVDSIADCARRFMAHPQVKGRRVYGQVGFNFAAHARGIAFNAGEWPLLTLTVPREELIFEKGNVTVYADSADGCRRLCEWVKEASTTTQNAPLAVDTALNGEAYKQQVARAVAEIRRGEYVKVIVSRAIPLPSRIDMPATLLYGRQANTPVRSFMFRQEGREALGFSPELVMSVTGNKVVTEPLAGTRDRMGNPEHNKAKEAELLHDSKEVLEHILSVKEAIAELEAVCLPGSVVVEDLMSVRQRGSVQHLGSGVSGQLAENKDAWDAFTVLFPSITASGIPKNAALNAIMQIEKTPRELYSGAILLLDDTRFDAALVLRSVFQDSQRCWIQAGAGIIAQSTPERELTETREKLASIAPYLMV

In ChEMBL document CHEMBL3352217, “Expanding the results of a high throughput screen against an isochorismate-pyruvate lyase to enzymes of a similar scaffold or mechanism” (Bioorg Med Chem, 2014):

Legend:
[1] = Inhibition of Pseudomonas aeruginosa PAO1 PchB expressed in Escherichia coli BL21(DE3) using isochorismate as substrate assessed as pyruvate production after 10 mins by microplate reader analysis
[2] = biological target: Salicylate synthetase, Irp9 (Yersinia enterocolitica, UniProt Q9X9I8); assay: Inhibition of Yersinia enterocolitica Irp9 using chorismate as substrate assessed as pyruvate production after 10 mins by microplate reader analysis
[3] = Inhibition of Pseudomonas aeruginosa PAO1 PchB expressed in Escherichia coli BL21(DE3) using isochorismate as substrate assessed as salicylate production by fluorescence spectrometry
[4] = Competitive inhibition of Pseudomonas aeruginosa PAO1 PchB expressed in Escherichia coli BL21(DE3) using isochorismate as substrate

With `O=[N+]([O-])c1cc(S(=O)(=O)c2cc([N+](=O)[O-])c(O)c([N+](=O)[O-])c2)cc([N+](=O)[O-])c1O` as the compound, how does the IC50 [1] read?
The IC50 was 70 nM.

And the IC50 [2]?
Its IC50 is “Not Active”.

And the IC50 [3]?
The IC50 was 100 nM.

What about the Ki [4] of the same compound?
The Ki was 80 nM.
